Experiment: Quantification of endogenous amount of the active substance in tobacco leaves (HPLC)

CC(/C=C/[C@@H]1[C@@]2(C)CCCC(C)(C)[C@@H]2CC[C@@]1(C)O)=C\CO [WAF-1, (11E,13E)-labda-11,13-diene-8α,15-diol]
endogenous content in leaves (TMV-inoculated leaves cultured at 20° C., 48 hours): 126±22 ng/g FW | endogenous content in leaves (TMV-inoculated leaves cultured at 20° C., shortly after inoculation): 26±6 ng/g FW | endogenous content in leaves (TMV-inoculated leaves, 30° C. 48 hours then shifted to 20° C., 0 hours): 43±9 ng/g FW | endogenous content in leaves (TMV-inoculated leaves, 30° C. 48 hours then shifted to 20° C., 24 hours): 189±45 ng/g FW
